A mixed list of measured activities; the numbers were collected in NIAID ChemDB.

All rows: toxicity to cultured cells; cell line: HEL; endpoint: CC50

CCn is the concentration with n% toxicity to the cells. Rows are shuffled and stem from different studies. An empty or dashed field is not shown.

structure | read by | value
COC(=O)[C@]1(C)CCC[C@]2(C)c3ccc4[nH]c(C)nc4c3CCC12 | - | 15.1 µg/mL
O=c1nc2oc(CCCSc3ccccc3)cc2cn1[C@H]1C[C@H](O)[C@@H](CO)O1 | - | >200 µM
C[C@H](NC(=O)N1C(=O)C[C@]1(Cc1ccccc1)C(=O)O)c1ccccc1 | - | >200 µM
Nc1nc2c(ncn2C[C@H](CO)OCP(=O)(O)O)c(=O)[nH]1 | - | 17 µM
Nc1ncnc2c1ncn2C[C@H]1COP(=O)(O)CO1 | - | 115 µM
Nc1ncnc2c1ncn2C[C@H](CO)OCP(=O)(O)O | - | >600 µM
Cc1ccc(C)c(C(C)S(=O)(=O)c2cccc(Cl)[n+]2[O-])c1 | - | 4.5 µg/mL
CCCCCCCCCC#Cc1cc2cn(COCCO)c(=O)nc2o1 | - | >50 µM
CCc1ccc(OCCCc2cc3cn([C@H]4C[C@H](O)[C@@H](CO)O4)c(=O)nc3o2)cc1 | - | >200 µM
CCCCCCCc1cc2cn(C3CCCC3)c(=O)nc2o1 | - | 194 µM
Cc1ccc(C)c(CS(=O)(=O)c2cccc(C)[n+]2[O-])c1 | - | ≥100 µg/mL
CCCCCCc1cc2cnc(OC3CCCC3)nc2o1 | - | >200 µM
O=c1[nH]c(=O)n([C@@H]2C[C@H](CO)C[C@H]2CO)cc1I | - | >200 µg/mL
CCCCc1cc2cnc(OC(CC)CC)nc2o1 | - | 98 µM
Nc1ncc2ncn(C[C@H](CF)OCP(=O)(O)O)c2n1 | - | >600 µM
COC(=O)[C@]1(C)CCC[C@]2(C)c3cc(Br)c4nc(C)[nH]c4c3CCC12 | - | 2.9 µg/mL
O=S(Cc1ccccc1)c1c(Cl)ccc[n+]1[O-] | - | 3.7 µg/mL
CCCCC#Cc1cc2cn(COCCO)c(=O)nc2o1 | - | >50 µM
COc1cc(CS(=O)(=O)c2cccc[n+]2[O-])cc(OC)c1OC | - | 51 µg/mL
CCCCCCc1cc2cn(C3CCCC3)c(=O)nc2o1 | - | >200 µM
Nc1ncc2ncn(C[C@@H](CO)OCP(=O)(O)O)c2n1 | - | >600 µM
COC(=O)C(c1ccccc1C)S(=O)c1cccc[n+]1[O-] | - | 4.6 µg/mL
Nc1nc(N)c2ncn(C[C@@H](CO)OCP(=O)(O)O)c2n1 | - | 82 µM
Cc1ccn2c(CSCc3ccccc3)c(-c3ccc4ccccc4c3)nc2c1 | - | 16 µg/mL
CCCCCCCc1cc2cn(CCC(C)C)c(=O)nc2o1 | - | >200 µM
Cc1ccn2c(CSCc3ccccc3)c(C(F)(F)F)nc2c1 | - | >50 µg/mL
O=C1OC(C(O)Cn2cc(C(F)(F)F)c(=O)[nH]c2=O)C(OCc2ccccc2)=C1OCc1ccccc1 | - | 31.7 µg/mL
Cc1cccn2c(CSCc3ccccc3)cnc12 | - | >50 µg/mL
CC(C)(C)OC(=O)C1(Cc2ccccc2)CC(=O)N1C(=O)OCc1ccccc1 | - | 36 µM
CCCCCCCCCCc1cc2cnc(OCC3CCCCC3)nc2o1 | - | >200 µM
Cc1ccc(C)c(C(C)Sc2cccc[n+]2[O-])c1 | - | >20 µg/mL
CC(C)Nc1ncnc2c1ncn2C1C[C@H](CO)[C@@H](CO)C1 | - | >200 µg/mL
Nc1ncc2ncn(C[C@@H](CF)OCP(=O)(O)O)c2n1 | - | >600 µM
CCCCCCCCc1cc2cn(CCC(C)C)c(=O)nc2o1 | - | >200 µM
C[C@H](NC(=O)N1C(=O)C[C@]1(Cc1ccccc1)C(=O)O)c1ccccc1 | - | >200 µM
Cc1ccc(C)c(C(CCCCCCBr)S(=O)(=O)c2cccc[n+]2[O-])c1 | - | 7.4 µg/mL
C[C@@H](NC(=O)C1(Cc2ccccc2)CCN1C(=O)OCc1ccccc1)C(=O)O | - | 50 µM
Nc1ncnc2c1ccn2[C@@H]1C[C@H](O)[C@@H](O)[C@H]1O | - | 50 µg/mL
CC1=C[C@H](n2cnc3c(N)ncnc32)C[C@@]1(CO)c1ccccc1 | - | >100 µg/mL
Nc1nc(N)c2ncn(C[C@@H](CF)OCP(=O)(O)O)c2n1 | - | >150 µM
CCCCCCCCCCc1cc2cn(Cc3ccccc3)c(=O)nc2o1 | - | >200 µM
C[C@@H](NC(=O)N1C(=O)C[C@]1(Cc1ccccc1)C(=O)O)c1ccccc1 | - | >200 µM
Nc1ccn(C[C@@H](CO)OCP(=O)(O)O)c(=O)n1 | MTT | 63 µM
Nc1nc(N)c2ncn([C@@H]3O[C@H](CO)[C@H]3CO)c2n1 | - | 212 µg/mL
CC1=CC(=O)C=C(C/C=C(\C)CC/C=C(\C)CC/C=C(\C)CC[C@@H](C)C(C)(C)O)C1=O | - | 32 µM
COC(=O)[C@]1(C)CCC[C@]2(C)c3ccc4nc5c(nc4c3CCC12)CCCC5 | - | 13 µg/mL
CCCCc1cc2cnc(OC3CCCC3)nc2o1 | - | 108 µM
CCCCCCCCCCc1cc2cn(C3CCOC3)c(=O)nc2o1 | - | 148 µM
CC(C)c1ccc(CS(=O)(=O)c2cccc[n+]2[O-])cc1 | - | 9.4 µg/mL
CCCCCCCc1cc2cnc(OCCCCC)nc2o1 | - | 1109 µM
O=S(=O)(Cc1ccccc1)c1c(Cl)ccc[n+]1[O-] | - | 1.5 µg/mL
CC1=CC(CO)(CO)C[C@H]1n1ccc(N)nc1=O | - | >100 µg/mL
O=S(Cc1cccc(C(F)(F)F)c1)c1cccc[n+]1[O-] | - | 54 µg/mL
O=c1nc2[nH]ccc2cn1COCCO | - | >200 µM
O=c1[nH]c(=O)c2ncn([C@@H]3O[C@H](CO)[C@H]3CO)c2[nH]1 | - | 327 µg/mL
O=c1ccn(C/C=C/c2ccccc2)c(=O)n1Cc1cc(F)cc(F)c1 | MTT | 51 µM
C[C@@H](NC(=O)N1C(=O)C[C@@]1(Cc1ccccc1)C(=O)OC(C)(C)C)c1ccccc1 | - | 70 µM
CCCCCC#Cc1cc2cn(COCCO)c(=O)nc2o1 | - | >50 µM
Nc1ncnc2c1ncn2C[C@@H](CO)OCP(=O)(O)O | - | 57 µM
Nc1ncn(C[C@H](CO)OCP(=O)(O)O)c(=O)n1 | - | ≥140 µg/mL
CO[C@H](CO)[C@@H](O)CCn1ccc(N)nc1=O | - | >400 µg/mL
Nc1ncnc2c1ncn2C[C@H](CF)OCP(=O)(O)O | - | >150 µM
Nc1cnn(C[C@H](CO)OCP(=O)(O)O)c(=O)n1 | - | >50 µg/mL
COC(=O)[C@]1(C)CCC[C@]2(C)c3ccc4nc(-c5ccccc5)c(-c5ccccc5)nc4c3CCC12 | - | >50 µg/mL
O=c1ccn([C@@H]2C[C@H](CO)C[C@H]2CO)c(=O)[nH]1 | - | >200 µg/mL
C[C@@H](NC(=O)C1(Cc2ccccc2)CCN1C(=O)OCc1ccccc1)C(N)=O | - | 50 µM
CCCCCCCc1cc2cnc(OC(CC)CC)nc2o1 | - | 98 µM
Cc1ccc[n+]([O-])c1S(=O)Cc1c(Cl)cccc1Cl | - | 100 µg/mL
C[C@H](NC(=O)N1C(=O)C[C@@]1(Cc1ccccc1)C(=O)OC(C)(C)C)c1ccccc1 | - | 184 µM
CCOc1ccccc1CS(=O)(=O)c1cccc[n+]1[O-] | - | 37 µg/mL
Nc1ncnc2c1ncn2CC[C@H](O)CCO | - | >400 µg/mL
O=S(=O)(Cc1c(Cl)cccc1Cl)c1cccc[n+]1[O-] | - | 15 µg/mL
Nc1ncnc2c1ncn2[C@@H]1O[C@H](CO)[C@H]1CO | - | 118 µg/mL
CC(c1ccc(Cl)cc1)S(=O)c1cccc[n+]1[O-] | - | 0.11 µg/mL
O=C1O/C(=C\Cn2cc(C(F)(F)F)c(=O)[nH]c2=O)C(O)=C1O | - | >50 µg/mL
Nc1ccn(C[C@H]2COP(=O)(O)CO2)c(=O)n1 | - | 720 µM
CCCCCCCC(Sc1cccc[n+]1[O-])c1cc(C)c(C)c(C)c1 | - | 5 µg/mL
Cc1cn(CC[C@H](O)CCO)c(=O)[nH]c1=O | - | >400 µg/mL
CC1(C)[C@@H](CO)CC[C@@]1(C)Cn1nnc2c(Cl)ncnc21 | - | >50 µg/mL
COc1cccnc1SCc1cc(C)ccc1C | - | >20 µg/mL
Cc1ccn2c(CSCCc3ccccc3)c(-c3cccs3)nc2c1 | - | 14 µg/mL
Cc1cc(Br)cc(Cn2c(=O)ccn(C/C=C/c3ccccc3)c2=O)c1 | MTT | >100 µM
Cc1cc(CS(=O)(=O)c2cccc[n+]2[O-])ccc1[N+](=O)[O-] | - | 4.9 µg/mL
Nc1nc2c(ncn2C[C@H](CF)OCP(=O)(O)O)c(=O)[nH]1 | - | 236 µM
CO[C@H](CO)[C@@H](O)CCn1cc(C)c(=O)[nH]c1=O | - | >400 µg/mL
CC(C)(C)OC(=O)C1(Cc2ccccc2)CC(=O)N1C(=O)OCc1ccccc1 | - | 36 µM
CC1(C)[C@@H](CO)CC[C@@]1(C)Cn1cnc2c(N)ncnc21 | - | >50 µg/mL
Cc1ccc(C)c(C(C)S(=O)(=O)c2cc(C)cc(C)[n+]2[O-])c1 | - | >100 µg/mL
O=c1nc2oc(CCCCOc3ccccc3)cc2cn1[C@H]1C[C@H](O)[C@@H](CO)O1 | - | >200 µM
CC1(C)[C@@H](CO)CC[C@@]1(C)Cn1cc(I)c(=O)[nH]c1=O | - | >50 µg/mL

Again, the opening 11 rows:

structure | read by | value
COC(=O)[C@]1(C)CCC[C@]2(C)c3ccc4[nH]c(C)nc4c3CCC12 | - | 15.1 µg/mL
O=c1nc2oc(CCCSc3ccccc3)cc2cn1[C@H]1C[C@H](O)[C@@H](CO)O1 | - | >200 µM
C[C@H](NC(=O)N1C(=O)C[C@]1(Cc1ccccc1)C(=O)O)c1ccccc1 | - | >200 µM
Nc1nc2c(ncn2C[C@H](CO)OCP(=O)(O)O)c(=O)[nH]1 | - | 17 µM
Nc1ncnc2c1ncn2C[C@H]1COP(=O)(O)CO1 | - | 115 µM
Nc1ncnc2c1ncn2C[C@H](CO)OCP(=O)(O)O | - | >600 µM
Cc1ccc(C)c(C(C)S(=O)(=O)c2cccc(Cl)[n+]2[O-])c1 | - | 4.5 µg/mL
CCCCCCCCCC#Cc1cc2cn(COCCO)c(=O)nc2o1 | - | >50 µM
CCc1ccc(OCCCc2cc3cn([C@H]4C[C@H](O)[C@@H](CO)O4)c(=O)nc3o2)cc1 | - | >200 µM
CCCCCCCc1cc2cn(C3CCCC3)c(=O)nc2o1 | - | 194 µM
Cc1ccc(C)c(CS(=O)(=O)c2cccc(C)[n+]2[O-])c1 | - | ≥100 µg/mL